Data source: PubChem BioAssay AID624099 (ICCB-Longwood, 2012)
The deposit covers about 21,000 reagents; shown is an unselected part. 497 of them (2.4%) count as active. 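Higher z means weaker E2 silencing; only reporter increases were scored, and knock-downs that hurt cell survival may mask genuine repressor factors.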

Purpose: 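Host factors E2 relies on to silence an HPV18 LCR reporter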 (primary screen)
System: human C33A cervical carcinoma cells (HPV-negative) stably expressing BPV1 E2 and an HPV18 LCR luciferase reporter
Knock-down reagent: siRNA pool against human genes, 40 nM
Duration: 72 h
Read-out: 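Per-well luciferase luminescence, z-scored on each plate against the plate mean and SD with control wells left out, then averaged across three replicate plates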
Scale: mean z-score and z-score: higher = stronger reporter signal, weaker E2 silencing
Call rule: 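Mean z ≥ 2 together with z ≥ 2 in two or more of the three replicates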

Target gene	mean z-score	z-score, replicate A	z-score, replicate B	z-score, replicate C	call
GZF1 (GDNF inducible zinc finger protein 1)	-0.04	-0.34	-0.19	0.42	inactive
IRF7 (interferon regulatory factor 7)	0.22	0.2	0.3	0.17	inactive
CELSR2 (cadherin EGF LAG seven-pass G-type receptor 2)	-0.59	-0.69	-0.54	-0.53	inactive
RNPEPL1 (arginyl aminopeptidase like 1)	-1.05	-1.05	-0.94	-1.17	inactive
GALNTL5 (polypeptide N-acetylgalactosaminyltransferase like 5)	-0.91	-1.21	-0.6	-0.9	inactive
HTR3B (5-hydroxytryptamine receptor 3B)	0.57	0.7	0.6	0.4	inactive
PNPLA5 (patatin like domain 5, triacylglycerol lipase)	-0.98	-0.77	-1.18	-1	inactive
DCK (deoxycytidine kinase)	-0.88	-1.2	-0.57	-0.85	inactive
FLJ31183 (retired record)	-0.02	0.02	0.22	-0.29	inactive
AGO4 (argonaute RISC component 4)	-0.73	-0.77	-0.84	-0.59	inactive
TYW3 (tRNA-yW synthesizing protein 3 homolog)	-0.08	-0.16	-0.04	-0.03	inactive
NR2E3 (nuclear receptor subfamily 2 group E member 3)	0.28	0.37	0.42	0.05	inactive
GRHL2 (grainyhead like transcription factor 2)	-0.21	-0.45	0.05	-0.24	inactive
PKIB (cAMP-dependent protein kinase inhibitor beta)	0.17	0.31	0.29	-0.1	inactive
DNAJB5 (DnaJ heat shock protein family (Hsp40) member B5)	-0.48	-0.53	-0.54	-0.36	inactive
SLC6A20	1.04	0.89	1.18	1.05	inactive
BLMH (bleomycin hydrolase)	-0.79	-0.83	-0.88	-0.65	inactive
PTRH2 (peptidyl-tRNA hydrolase 2)	-0.36	-0.04	-0.44	-0.59	inactive
CA5B (carbonic anhydrase 5B)	-1.52	-1.54	-1.54	-1.48	inactive
SH2B1 (SH2B adaptor protein 1)	-1.47	-1.39	-1.52	-1.5	inactive
FAM89B (family with sequence similarity 89 member B)	1.2	1.21	1.04	1.35	inactive
ZBTB43 (zinc finger and BTB domain containing 43)	0.49	0.89	0.07	0.51	inactive
MAP3K3 (mitogen-activated protein kinase kinase kinase 3)	0.3	0.08	0.45	0.36	inactive

4 entries from above, set out differently:
{"Target gene":"FLJ31183 (retired record)","mean z-score":-0.02,"z-score, replicate A":0.02,"z-score, replicate B":0.22,"z-score, replicate C":-0.29,"call":"inactive"}
{"Target gene":"AGO4 (argonaute RISC component 4)","mean z-score":-0.73,"z-score, replicate A":-0.77,"z-score, replicate B":-0.84,"z-score, replicate C":-0.59,"call":"inactive"}
{"Target gene":"TYW3 (tRNA-yW synthesizing protein 3 homolog)","mean z-score":-0.08,"z-score, replicate A":-0.16,"z-score, replicate B":-0.04,"z-score, replicate C":-0.03,"call":"inactive"}
{"Target gene":"NR2E3 (nuclear receptor subfamily 2 group E member 3)","mean z-score":0.28,"z-score, replicate A":0.37,"z-score, replicate B":0.42,"z-score, replicate C":0.05,"call":"inactive"}
